Library screen at single concentrations

Data taken from ChEMBL document CHEMBL3988442, “University of Dundee, Small-Polar-MMV Screening Library” (2021).

Mtb cholesterol medium: 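Phenotypic screen: M. tuberculosis growth, cholesterol and DPPC medium, 4 days; the read-out is not stated. Compounds at 500 µM. Higher reads as more growth inhibition (inferred: compounds with an IC50 in retests scored well above the rest). Of about 18,000 compounds tested this way, about 900 (5%) reached 50% or more in at least one test.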
Mtb glucose medium: 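Growth of Mycobacterium tuberculosis over 3 days (7H9 medium with glucose and tyloxapol); the read-out is not stated. Concentration: 500 µM. The record gives no direction; compounds that gave an IC50 in retests scored well above the rest, so higher reads as more growth inhibition. Of about 18,000 compounds tested this way, about 1,400 (7.9%) reached 50% or more in at least one test.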

Values are the deposited “Percent Effect”, in %. The record does not define 0% and 100%; most values in the screen are far below 50% and negative numbers occur (in some assays of this library far below -100). The entries come from a sample that favours strong results.

Cn1nnnc1C1CCCN(C(=O)c2ccccc2)C1 (centres undefined) read Mtb cholesterol medium: -4.995%. With CN(CCC#N)C(=O)COC(=O)c1ccccc1Br the screen gave Mtb cholesterol medium: 0.9744%; Mtb glucose medium: 51.27%. CN(Cc1cccnc1)Cc1cc(C#N)cs1 read Mtb glucose medium: 48.28%. With Nc1cnccc1NCCN1CCOCC1 the screen gave Mtb cholesterol medium: -3.564%. Result for Cc1ccccc1C(=O)NCCCN1CCCC1 was Mtb cholesterol medium: 0.4911%.

NCc1cccc(N2CCCC2=O)c1 read Mtb glucose medium: 6.644%. Nc1ccc(CN2CCCC2)cn1 read Mtb cholesterol medium: -19.18%. Result for CC(=O)Nc1nc(C(=O)NC2(C)CCS(=O)(=O)C2)cs1 (centres undefined) was Mtb glucose medium: -5.027%. Result for CCn1cnnc1CCNC(=O)c1occc1C was Mtb glucose medium: 16.75%. COc1ncccc1CNS(=O)(=O)c1cccc(Cl)c1 read Mtb cholesterol medium: 53.16%; Mtb glucose medium: 71.16%.

With Cc1nonc1CC(=O)N(C)CC1CCCCO1 (centres undefined) the screen gave Mtb glucose medium: 17.3%. CCN(CCN1CCCC1)C1CCNCC1 read Mtb cholesterol medium: -1.071%. With c1ccc(OCCCNCc2ccco2)nc1 the screen gave Mtb cholesterol medium: 20.11%; Mtb glucose medium: 10.14%. For Cc1ccc(NC(=O)CN(C)C)cc1C(=O)NC(C)C the result was Mtb cholesterol medium: 4.061%. Result for COc1ccc(CC(=O)Nc2cnn(C)c2)cc1F was Mtb glucose medium: 13.6%.

CC(C)CCC(=O)N1CCC(C)(CO)C1 (centres undefined) gave Mtb glucose medium: 14.47%. CC(C)[C@H]1CN(C(=O)c2ccoc2)C[C@@H]1N read Mtb glucose medium: 3.295%. Result for N#Cc1c/c(=N\CC2CCCO2)cc[nH]1 (centres undefined) was Mtb glucose medium: 5.506%. Result for CNC(C)c1ccc(-n2cncn2)cc1 (centres undefined) was Mtb cholesterol medium: 7.431%. Result for CNC(C)(C)C(=O)OC was Mtb glucose medium: -1.436%.

For N[C@@H]1C[C@H]1c1ccc(F)c(F)c1 the result was Mtb cholesterol medium: 24.27%. With CNCC(=O)Nc1ccc(Br)cn1 the screen gave Mtb cholesterol medium: -7.824%. Result for NC(c1ccccc1)C1(CO)CCOCC1 (centres undefined) was Mtb glucose medium: 23.09%. COc1ccc(CCN2CCCNCC2)cc1 gave Mtb cholesterol medium: 62.34%; Mtb glucose medium: 71.94%. For Cc1nn(CCC(=O)NCCN2CCOCC2)cc1Br the result was Mtb glucose medium: -1.68%.

For Nc1nnc(SCC(=O)OC2CCCCC2)[nH]1 the result was Mtb glucose medium: 7.716%. Cc1ccc(C(CN)N2CCOCC2)o1 (centres undefined) read Mtb cholesterol medium: 1.961%; Mtb glucose medium: 34.14%. COc1cccc(C(C)N2CCCN(C(N)=O)CC2)c1 (centres undefined) gave Mtb glucose medium: 1.837%. With CC(C)CS(=O)(=O)CCNC(=O)c1ccc(=O)n(C)c1 the screen gave Mtb cholesterol medium: -0.7903%. For CCOc1nn(C)cc1N the result was Mtb glucose medium: 23.3%.

For COCCCn1ccc(Nc2ncccc2C#N)n1 the result was Mtb cholesterol medium: 6.239%. COCCc1ccc2oc(N)nc2c1 read Mtb glucose medium: 6.643%. With CCC1=NOC(CN2CCN(c3nc[nH]n3)CC2)C1 (centres undefined) the screen gave Mtb glucose medium: 3.713%. For NC(=O)CNC(=O)c1cc(Cl)ccc1OC1CCCC1 the result was Mtb cholesterol medium: -4.744%.

The last 3 entries again:

- COCCc1ccc2oc(N)nc2c1 | Mtb glucose medium: 6.643%
- CCC1=NOC(CN2CCN(c3nc[nH]n3)CC2)C1 (centres undefined) | Mtb glucose medium: 3.713%
- NC(=O)CNC(=O)c1cc(Cl)ccc1OC1CCCC1 | Mtb cholesterol medium: -4.744%